In the supplement of paper PMC9931576:
Human monoclonal antibodies against the spike receptor-binding domain (heavy:light variable regions). IC50 against pseudoviruses bearing the spike of naturally observed variants; lower = stronger; >10 µg/ml means not reached at the top dose. No active / inactive call. The stated detection limit is 0.0005 µg/ml; values near or below 0.001 µg/ml lie at the floor of the assay.

B1: CV07-222 (protein)
chain 1: QVQLVQSGAEVKKPGASVKVSCKASGYTFTDYYVHWVRQAPGQGLEWMGWINPISGGTNYAQKFQGRVTMTRDTSISTAYMELSRLRSDDTAVYYCARGPYYYDSSGSLGAFDIWGQGTMVTVSS
chain 2: QSALTQPASVSGSPGQSITISCTGTSSDVGSYNLVSWYQQHPGKAPKLMIYEGSKRPSGVSNRFSGSKSGNTASLTISGLQAEDEAHYYCCSYAGGSTSYVFGTGTKVTVL
B2: BD56-936 (protein)
chain 1: QVQLVQSGAVMKKPGSSVKVTCKASGGTFSSNSISWVRQAPGQGLEWMGRIIPILAIPNYAQKFQGRVTITADKSTSTAYMELSSLRSEDTAVYYCARDRGYSSSSASYYMDVWGKGTTVTVSS
chain 2: QSVLTQPPSVSGAPGQRVTISCTGDSSSIGAGYDVHWYQQLPGTAPKLLIYGSSNRPSGVPDRFSGSKSGTSASLAITGLQAEDEAEYYCQSYDSSLSDSVFGSGTKLTVL
B3: BD56-938 (protein)
chain 1: QVQLVESGGGLVKPGGSLRISCAASGFTFSDYYMSWIRQAPGKGLEWVSYISSGSSFTDYADSVKGRFTISRDNAKNSLWLRLTSLRDEDTAVYYCARVGPKTSSSTWYDDPQYKYHYMDVWGKGTTVAVSS
chain 2: EIVLTQSPGTLSLSPGERATLSCRASQSVSSTYLAWYQQRPGQAPRLLIYGASSRATGIPDRFSGSGSGTDFTLTISRLEPEDFAVYYCQQCGASPWTFGQGTKVEIK
B4: BD56-941 (protein)
chain 1: QVHLVQSGAEVKKPGASVKVSCKASGYTFTTFGISWVRQAPGQAFEWVGWISAYNGNTKIAQKFHGRVTMTADTSTSTAYMEVRSLRSDDTAIYYCARDNRDYGDALDYWGQGTLVTVSS
chain 2: DVQMTQSPSTLSASVGARVTITCRASQSISRWLAWYQQKPGKAPKLLVYQAFRLESGVPSRFSGSGSGTEFTLTISNLQPDDFATYYCQQYNTYSPYTFGQGTKLEIK
B5: BD56-944 (protein)
chain 1: QVQLVQSGAEVKKPGASVRVSCKASGYTFTSYGISWVRQAPGQGLEWMGWIGGYNDNTNYARDLQGRVTMTTDTSTSTAYMELRSLRSDDTAVYYCARVGEYYSDRSAYYFDHWGQGTLVTVSS
chain 2: EVVMTQSPATLSVSPGERATLSCRASQSVSRNLAWYQQKPGQAPRVLIYGASTRATGIPARFSGSGSGTEFTLTISSLQSEDFAVYYCQQYDNWPPEFTFGPGTKLNIK
B6: BD56-948 (protein)
chain 1: QVHLVQSGAEVKKPGASVKLSCKSSGYTFTSYSLHWVRQAPGQGLEWMGIINPSGGGTRYAQKFQGRVTMTRDTSTNTVYMELRSLRSDDTAVFYCAREGCSGTSCFGAWGQGTLVTVSS
chain 2: SYVLTQPPSVSVAPGQTARITCGGSDIGSKSVHWYQHKPGQAPVLVVYDDSDRPSGIPERFSGSNSGNTATLTISRVEAGDEADYYCQLFDGTTDHHYVFGSGTKVTVL

Experiments:
Assay in all cases: pseudovirus neutralization IC50; higher = weaker neutralization
[1] = target: SARS-CoV-2 Omicron BA.1 spike pseudovirus
Protocol: (§1)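 Single-round VSV luciferase pseudovirus mixed with antibody dilutions for 1 h and put on Huh-7 cells for about a day; IC50 from the dose curve.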

[2] = target: SARS-CoV-2 Omicron BA.2 spike pseudovirus
Protocol: as §1

[3] = target: SARS-CoV-2 Omicron BA.2.75 spike pseudovirus
Protocol: as §1

[4] = target: SARS-CoV-2 Omicron BA.5 spike pseudovirus
Protocol: as §1

[5] = target: SARS-CoV-2 Omicron BQ.1.1 spike pseudovirus
Protocol: as §1

[6] = target: SARS-CoV-2 Omicron XBB spike pseudovirus
Protocol: as §1

[7] = target: SARS-CoV-2 early D614G spike pseudovirus
Protocol: as §1

Binder	pseudovirus neutralization IC50 [1]	pseudovirus neutralization IC50 [2]	pseudovirus neutralization IC50 [3]	pseudovirus neutralization IC50 [4]	pseudovirus neutralization IC50 [5]	pseudovirus neutralization IC50 [6]	pseudovirus neutralization IC50 [7]
B1	> 10 µg/mL	> 10 µg/mL	> 10 µg/mL	> 10 µg/mL	> 10 µg/mL	> 10 µg/mL	0.0151 µg/mL
B2	0.0626 µg/mL	0.0425 µg/mL	0.0786 µg/mL	> 10 µg/mL	> 10 µg/mL	4.09 µg/mL	0.169 µg/mL
B3	0.0469 µg/mL	0.0659 µg/mL	0.0824 µg/mL	0.0293 µg/mL	5.33 µg/mL	4.96 µg/mL	0.0119 µg/mL
B4	> 10 µg/mL	> 10 µg/mL	> 10 µg/mL	> 10 µg/mL	> 10 µg/mL	> 10 µg/mL	0.117 µg/mL
B5	1.15 µg/mL	3.49 µg/mL	1.46 µg/mL	3.79 µg/mL	3.03 µg/mL	2.94 µg/mL	3.15 µg/mL
B6	> 10 µg/mL	> 10 µg/mL	> 10 µg/mL	> 10 µg/mL	> 10 µg/mL	> 10 µg/mL	> 10 µg/mL
